# Values quoted from earlier work in article PMC2770896, “Inhibition of Neuraminidase Inhibitor-Resistant Influenza Virus by DAS181, a Novel Sialidase Fusion Protein” (PLoS ONE, 2009).
# Test system: IFV A/Victoria/3/75 passaged with peramivir, HA mutation K186E
# Details: tested form: tartrate; cited from earlier work
smiles,measurement,value
"CCC(CC)O[C@@H]1C=C(C(=O)O)C[C@H](N)[C@H]1NC(C)=O [oseltamivir, oseltamivir carboxylate]",NAI resistance in vitro,strongly pan-NAI resistant
